# Library screen at single concentrations

From ChEMBL document CHEMBL3988442, “University of Dundee, Small-Polar-MMV Screening Library” (2021).

Mtb glucose medium: 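Phenotypic screen: M. tuberculosis growth, glucose 7H9 medium, 3 days; the read-out is not stated. Tested at 50 µM. Direction is inferred from retests: higher values go with more growth inhibition. About 69,000 compounds were tested under these conditions; 1.1% (about 760) showed 50% or more at least once.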
Mtb cholesterol medium: 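Growth of Mycobacterium tuberculosis over 4 days (cholesterol / DPPC medium with tyloxapol); the read-out is not stated. Compounds at 50 µM. Direction is inferred from retests: higher values go with more growth inhibition. Size under these conditions: about 69,000 compounds, about 370 of them at 50% or above in at least one test.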

Each number is a percent effect as filed.
The record does not define 0% and 100%; most values in the screen are far below 50% and negative numbers occur (in some assays of this library far below -100).
Many other results are left out here, so strong results are more common than in the screen.
Two or more numbers in one place are separate tests of the same structure; such repeats can differ widely.
A dash means the value is not listed here; it may have been measured.

compound | Mtb glucose medium | Mtb cholesterol medium
CSc1nccc(N2CCC3(CCCN(CCc4ccccc4)C3)C2)n1 (stereo not shown) | 58.12 | -
CC(C)Oc1ccc(CN2CCCC(N3CCCC3)C2)cc1CO (stereo not shown) | 50.91 and 29.14 | -
CCN(CC)c1ccc(C(=O)NCC2(C(N)=O)CCOCC2)cn1 | -36.86 and -2.658 | -13
Fc1ccccc1CC1CCN(Cc2ccccn2)CC1 | - | 16.5
Cc1nc(CCCNC(=O)c2cc(F)ccc2O)n[nH]1 | 20.36 | 6.596
Cc1cc2c(=O)n3c(nc2s1)CCN(C(=O)c1scnc1C)CC3 | 21.29 | -
COC(=O)CCN(C)Cc1cc(Br)cs1 | - | 21.66
CN1CCC(Cc2cc(Nc3ncccn3)ncn2)CC1 | - | 54.55
CN1CCC(CNC(=O)c2cccc(NC(N)=O)c2)c2ccccc21 (stereo not shown) | 11.74 and 8.752 | -
c1ccc(-c2noc([C@@H]3Cc4nc[nH]c4CN3)n2)cc1 | 30.78 and 11.62 | -
CCN(C)S(=O)(=O)NCC(O)c1cc2ccccc2s1 (stereo not shown) | 23.35 | 16.09
O=C(COCc1ccccc1)N1CCCC(n2cncn2)C1 (stereo not shown) | -15.36 | -
CSC1(CNC(=O)N(C)Cc2ccc(Cl)s2)CCOCC1 | -57.39 | -
Cc1csc2ncc(-c3ccnc(N4CCN(C)CC4)n3)c(=O)n12 | -26.13 | -
O=C1Nc2ccccc2CN(C/C=C/c2ccccc2)C12CCNC2 (stereo not shown) | 56.39 | -
COCCN1CCN(c2ccc(C)nn2)Cc2cccnc21.O=C(O)C(F)(F)F | 3.519 and 14.19 | -
Cc1ccnn1CCC(=O)N1CCCC2(C1)NC(=O)c1ccccc1O2 (stereo not shown) | - | 7.984 and -6.031
CN(C)S(=O)(=O)c1ccc(CN2CCC(c3ccccc3)C2)o1 (stereo not shown) | 6.935 and 13.68 | -
CCOc1cccc(CCNC(=O)Cc2ccccc2O)n1 | -1.434 | -
CC(C)CC(=O)N1CCC2(CC1)OCCO2 | -19.55 | -
Nc1ccnc(N2CCC(c3nccn3CC3CC3)CC2)n1 | - | -13.52
Cc1cc(C2CCC2)nc(N(C)Cc2ncccc2C)n1 | -38.76 | -
COc1cc2c(cc1CNC(Cc1cccs1)c1nccs1)OCO2.Cl (stereo not shown) | 3.753 | 30.43 and 42.41
CC(C)(CO)Nc1ccc(-c2nc(-c3ccccc3F)no2)cn1 | 12.95 and 16.84 | -
Cc1cc(C)c2c(N(C)CC3CCN(CC(C)C)C3)ncnc2n1 (stereo not shown) | - | 5.375
CNC(=O)[C@@H](C)NC(=O)c1cc(-c2ccc(F)cc2)c(C)s1 | 8.572 | -5.599
Cc1nc(N2CCCC2)nc2c1CCN(C(=O)CN(C)C)CC2.O=C(O)C(F)(F)F | -5.644 and -17.39 | 20.65
Fc1ccc(Cn2ncc3c2CN(c2ncccn2)C3)cc1 | - | 8.068 and 21.15
O=C(NCc1ccco1)c1cc[n+]([O-])cc1 | 0.3186 | 16.01 and 9.244
CN(C)c1cc(CNC(=O)Nc2nccs2)ccn1 | -16.03 | -
CCNC(=O)N(C)C(c1ccccc1)c1ccccn1 (stereo not shown) | 8.477 | 25.29
COc1ccc(-c2ccccc2CN)c(OC)c1 | 2.304 and 5.628 | -
Cc1ccc(NC(C)C(=O)NCc2cccs2)cc1Cl (stereo not shown) | - | 51.57 and 62.38
COC(=O)COn1c(SCC(=O)OC)nc2ccccc2c1=O | 20.31 | -
COCCN(C/C=C/c1ccccc1)Cc1ccccn1 | 20.51 | -
COCCn1cncc1CN1CCCC(C)(c2ccccc2)C1 (stereo not shown) | 7.957 | -30.45
O=S(=O)(CCO)Cc1ccc(OC(F)F)cc1 | -14.63 | 11.96
CCc1ccc(CN(C)C(=O)c2ccc(CSc3nnc[nH]3)o2)nc1 | -10.09 and 0.01054 | -0.2548
CC1CCCN(c2ccc(C(N)=O)cc2NC(=O)CC2=CCNCC2)C1 (stereo not shown) | 56.22 | -
Cc1cnc2c(S(=O)(=O)NCC3CCS(=O)(=O)C3)cccc2c1 (stereo not shown) | 4.318 | -
O=C(O)C(F)(F)F.[H][C@@]12CN(CC)C[C@]1([H])[C@@H](OC)CCN2C(=O)Cc1ccsc1 | - | 64.6
Cc1oc(-c2ccc(Cl)cc2)nc1C(=O)NC1=NCCS1 | 42.14 and 40.33 | 17.42
c1cc2c(cc1CN1CCN(Cc3noc(C4CC4)n3)CC1)OCO2 | -0.7615 | -
O=C(CCO)N1CCC2(CCc3ccc(-c4ccoc4)cc32)CC1 | 8.569 and 1.626 | -
Clc1cccc(C(NCc2ncc[nH]2)c2ccccn2)c1 (stereo not shown) | 8.328 and 20.06 | 4.089
Cc1csc(C2CCCN(C(=O)c3cc(Cl)c[nH]3)C2)n1 (stereo not shown) | 32.11 | 2.913
O=C1CCCN1Cc1nnc(SCc2ccc3c(c2)CCC3)o1 | 31.7 | 26.86 and 41.45
Cc1cccc(OCCN2CCC(c3ccnn3CCO)CC2)c1 | 52.72 | -
Cc1csc2ncc(-c3ccnc(N4CCCC4)n3)c(=O)n12 | 55.68 | -
CC(NC(=O)CN1CCN(Cc2ccc(Br)s2)CC1)c1ccccc1 (stereo not shown) | - | -18.43
O=C(c1nnn(-c2ccc(C(F)(F)F)cc2)n1)N1CC(O)C1 | -16.07 and 6.73 | -
O=C(c1ccc(Br)o1)N1CCN(Cc2ccc(F)cc2)CC1 | 54.41 | 37.92
CNC1CCCN(Cc2noc(C3CC3)n2)C1.Cl (stereo not shown) | 19.42 | -
COc1cccc(-c2cc(C(=O)NCCCn3cnnc3)[nH]n2)c1 | 3.585 | -
CC(C)c1cc(C(=O)NCCCN(C)C)nc(N2CCCC2)n1 | 68.85 | -
O=C(O)c1cc(S(=O)(=O)Nc2cc(Cl)ccc2F)cc2c1OCCO2 | 10.04 | -28.54
Cc1cc(N2CCOC(CN)C2)nc(-c2ccccc2)n1 (stereo not shown) | 8.633 | -
COc1ccc(N2CCOCC3(CCCN(c4cnccn4)C3)C2)cc1 (stereo not shown) | 6.616 | -
O=C(O)C(F)(F)F.[H][C@@]12CCN(CCc3ccccc3)C[C@]1([H])[C@@H](CNS(C)(=O)=O)OC2 | - | 57.57
Cc1nc(CNCC2COCc3c(-c4ccoc4)nnn3C2)cs1 (stereo not shown) | 70.19 | -
c1cc(-c2nc3c(c(NCCc4c[nH]cn4)n2)CCNCC3)ccn1 | 7.548 and -7.123 | -
COC(=O)c1ccc(/C=C/c2ncc(C(=O)O)s2)cc1 | - | -16.35
Cc1nc(NC(=O)COCC(F)(F)F)ccc1Br | 54.39 | -
NCC1CN(c2nc(-c3cccnc3)nc3c2CCNCC3)CCO1 (stereo not shown) | 42.1 | -
O=C(CCc1ccccn1)N1CCSC2(CCCCC2)C1 | 54.06 | -
Cn1ccnc1CN1CCN(CC(O)c2cccc(F)c2)CC1 (stereo not shown) | -2.474 | -
CC(C)Cc1cc(C(=O)NCc2nnc[nH]2)[nH]n1 | -11.02 and 1.064 | -0.1938
CCS(=O)(=O)N1CCC(c2nnc(CN3CCOCC3)n2C)CC1 | - | 2.389
O=C(c1cnc(Nc2ccccc2)nc1)N1CCS(=O)(=O)CC1 | 11.02 | -
CC(=O)N1CCCC(c2ccc(Br)cn2)C1 (stereo not shown) | -3.258 | -15.61
Cn1ncc2c1C(COCC1CC1)CN(Cc1ccsc1)C2 (stereo not shown) | 69.72 | -
COc1cccc(F)c1-c1c[nH]c(C)n1 | -38.46 | -
CNC(=O)Cc1cc2nccc(-c3c(OC)cccc3OC)n2n1 | 33.7 | -